## Potato spindle tuber viroid, stem 3: variant abundance in plants

Region: stem 3 of PSTVd (intermediate strain), upper and lower strand joined, each 5' to 3', the first 8 letters being the upper strand. Wild type: GUGGUUCCGGAACCGC. Varied positions (N): GUGGUUCCGNANNCNN.

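A pool of all variants was put on leaves of three Nicotiana benthamiana plants. Progeny were sequenced from the inoculated region (day 5), the margin of the inoculated leaf (day 10) and systemic leaves (day 12).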

Values are reads per thousand in the sample; higher means more abundant, 0 means not found.
Each site shows the three plants.
"Pool" is the share in the plasmid pool used as inoculum, on the same scale.
The inoculated region was read from the minus strand, the other sites from the plus strand.

GUGGUUCCGGAACCCG (pool 1.08) read inoculated region 0.347 / 0.388 / 0.243; leaf margin 0 / 0 / 0; systemic leaves 0 / 0 / 0.
GUGGUUCCGCACCCUG (pool 1.02) read inoculated region 0.347 / 0.496 / 0.297; leaf margin 0.0283 / 0 / 0; systemic leaves 0 / 0 / 0.
GUGGUUCCGUAGCCCU (pool 0.785) read inoculated region 0.800 / 0.647 / 0.811; leaf margin 0.0283 / 0 / 0.289; systemic leaves 0 / 0 / 0.
GUGGUUCCGUAAACAA (pool 0.800) read inoculated region 0.453 / 0.237 / 0.162; leaf margin 0 / 0 / 0.0361; systemic leaves 0 / 0 / 0.
GUGGUUCCGAAUCCCC (pool 0.800) read inoculated region 0.400 / 0.280 / 0.216; leaf margin 0 / 0.0318 / 0; systemic leaves 0 / 0 / 0.
GUGGUUCCGAAACCCG (pool 0.970) read inoculated region 0.480 / 0.496 / 0.459; leaf margin 0 / 0 / 0; systemic leaves 0.0186 / 0 / 0.
GUGGUUCCGAAGUCGA (pool 0.954) read inoculated region 0.720 / 0.690 / 0.594; leaf margin 0.0283 / 0.0318 / 0.0361; systemic leaves 1.14 / 1.24 / 0.632.
GUGGUUCCGGAUACCU (pool 0.662) read inoculated region 0.267 / 0.280 / 0.486; leaf margin 0 / 0 / 0; systemic leaves 0 / 0 / 0.
GUGGUUCCGCACCCUA (pool 1.18) read inoculated region 0.426 / 0.302 / 0.324; leaf margin 0 / 0.0318 / 0; systemic leaves 0 / 0.0184 / 0.
GUGGUUCCGAACGCCG (pool 0.939) read inoculated region 0.320 / 0.280 / 0.297; leaf margin 0 / 0 / 0.0361; systemic leaves 0 / 0 / 0.
GUGGUUCCGCAAGCAG (pool 0.723) read inoculated region 0.240 / 0.453 / 0.270; leaf margin 0 / 0.0318 / 0; systemic leaves 0 / 0 / 0.
GUGGUUCCGUAAUCGG (pool 0.877) read inoculated region 0.320 / 0.410 / 0.297; leaf margin 0 / 0 / 0; systemic leaves 0 / 0 / 0.
GUGGUUCCGAAGCCAC (pool 1.18) read inoculated region 1.04 / 1.14 / 1.70; leaf margin 2.04 / 0.986 / 0.469; systemic leaves 1.10 / 1.49 / 1.05.
GUGGUUCCGGAUACCA (pool 0.693) read inoculated region 0.533 / 0.259 / 0.108; leaf margin 0 / 0 / 0; systemic leaves 0 / 0 / 0.
GUGGUUCCGGACUCCA (pool 0.831) read inoculated region 0.293 / 0.496 / 0.378; leaf margin 0 / 0.0318 / 0; systemic leaves 0 / 0 / 0.
GUGGUUCCGAAGACCC (pool 0.769) read inoculated region 1.01 / 0.733 / 0.811; leaf margin 0 / 0 / 0.686; systemic leaves 0 / 0 / 0.
GUGGUUCCGGAAAGUU (pool 0.0462) read inoculated region 0 / 0.0647 / 0; leaf margin 0 / 0 / 0; systemic leaves 0 / 0 / 0.
GUGGGUCCGUACGCCA (pool 0.0154) read inoculated region 0 / 0 / 0; leaf margin 0 / 0 / 0; systemic leaves 0 / 0 / 0.
GUGGGUCCGGAUUCGU (pool 0.0308) read inoculated region 0 / 0 / 0; leaf margin 0 / 0 / 0; systemic leaves 0 / 0 / 0.
GUGGUUCCGAACACGC (pool 0.677) read inoculated region 0.400 / 0.431 / 0.297; leaf margin 0 / 0 / 0.0361; systemic leaves 0 / 0 / 0.
GUGGUUCCGAACUCGC (pool 1.29) read inoculated region 0.960 / 1.01 / 1.30; leaf margin 0 / 0 / 0.0361; systemic leaves 0 / 0 / 0.
AUGGUUCCGUAAACCA (pool 0.0154) read inoculated region 0 / 0 / 0; leaf margin 0 / 0 / 0; systemic leaves 0 / 0 / 0.
GUGGUUCCGCAAGCUA (pool 0.754) read inoculated region 0.373 / 0.237 / 0.189; leaf margin 0.0283 / 0.0318 / 0; systemic leaves 0 / 0 / 0.
GUGGUUCCGCAACCAC (pool 1.89) read inoculated region 0.960 / 0.690 / 0.892; leaf margin 0 / 0 / 0; systemic leaves 0.0559 / 0 / 0.
GUGGUUCCGUAUCCCU (pool 0.816) read inoculated region 0.480 / 0.280 / 0.216; leaf margin 0 / 0 / 0; systemic leaves 0 / 0 / 0.
GUGGUUCCGAAACCCA (pool 0.862) read inoculated region 0.320 / 0.410 / 0.297; leaf margin 0 / 0.0318 / 0.0722; systemic leaves 0 / 0 / 0.
GUGGUUCCGCAGCCCC (pool 1.29) read inoculated region 0.613 / 0.863 / 0.919; leaf margin 0.227 / 0 / 0; systemic leaves 0 / 0.0738 / 0.
GUGGUUCCGUAUUCGC (pool 1.06) read inoculated region 0.320 / 0.237 / 0.243; leaf margin 0 / 0.0318 / 0; systemic leaves 0 / 0 / 0.0243.
GUGGUUCCGCACUCUU (pool 0.631) read inoculated region 0.533 / 0.863 / 0.622; leaf margin 0 / 0 / 0.361; systemic leaves 0 / 0 / 0.
GUGGUUCCGUACCCAA (pool 0.816) read inoculated region 0.347 / 0.367 / 0.297; leaf margin 0 / 0 / 0.0361; systemic leaves 0 / 0 / 0.
GUGGGUCCGCAUACUU (pool 0.0154) read inoculated region 0 / 0 / 0; leaf margin 0 / 0 / 0; systemic leaves 0 / 0 / 0.
GUGGUUCCGCACUCGA (pool 1.09) read inoculated region 0.240 / 0.216 / 0.243; leaf margin 0 / 0 / 0.0361; systemic leaves 0 / 0 / 0.
GUGGUUCCGUACACCG (pool 0.831) read inoculated region 0.400 / 0.345 / 0.189; leaf margin 0 / 0.0318 / 0; systemic leaves 0 / 0 / 0.
GUGGUUCCGCAAGCGG (pool 1.52) read inoculated region 0.560 / 0.582 / 0.703; leaf margin 0.340 / 0 / 0.0361; systemic leaves 0 / 0 / 0.
GUGGUUCCGGAGGCCU (pool 0.939) read inoculated region 0.666 / 0.668 / 0.946; leaf margin 0 / 0.0318 / 0; systemic leaves 0 / 0 / 0.

A selection of 4 entries from above:

* GUGGUUCCGUACACCG (pool 0.831) = inoculated region 0.400 / 0.345 / 0.189; leaf margin 0 / 0.0318 / 0; systemic leaves 0 / 0 / 0
* GUGGUUCCGUAUUCGC (pool 1.06) = inoculated region 0.320 / 0.237 / 0.243; leaf margin 0 / 0.0318 / 0; systemic leaves 0 / 0 / 0.0243
* GUGGUUCCGAACGCCG (pool 0.939) = inoculated region 0.320 / 0.280 / 0.297; leaf margin 0 / 0 / 0.0361; systemic leaves 0 / 0 / 0
* GUGGUUCCGCAAGCUA (pool 0.754) = inoculated region 0.373 / 0.237 / 0.189; leaf margin 0.0283 / 0.0318 / 0; systemic leaves 0 / 0 / 0

Samples held 27,691 to 54,225 reads, so the smallest values rest on one or two reads.
The authors trace changes outside the varied positions to PCR and sequencing errors or to mutation in the plant; presence does not show that a variant is infectious alone.
For reference, wild type rose from 17.3 per thousand in the pool to 330, 345, 235 (inoculated region), 794, 766, 816 (leaf margin) and 830, 792, 869 (systemic leaves).

The measurements come from Wu et al. 2024 (doi:10.1371/journal.ppat.1012142).